Assay [1] concerns the target T1, recombinant C. parvum IMPDH (Cryptosporidium parvum, UniProt Q8T6T2). The assay can be described thus: C. parvum IMPDH inhibition (NADH production). The class given is biochemical. The settings on record: for IC50: read-out: IC50 CpIMPDH. The method, then: Recombinant C. parvum IMPDH was expressed in bacteria and purified as described previously [N. N. Umejiego et al., J Biol Chem 279, 40320-40327 (2004)].
Inhibitors at varying concentrations (25 pM-5 μM) were incubated with 10 nM C. parvum in assay buffer for 10 min at room temperature. The reaction was initiated by the addition of NAD and IMP for final concentrations of 300 μM and 150 μM, respectively. Selectivity was measured against human type II and T. foetus IMPDH at 25° C. in assay buffer. The former was assayed in the presence of 300 μM NAD 40 μM IMP and 160 nM human type II IMPDH, and the latter in the presence of 300 μM NAD 20 μM IMP and 28 nM T. foetus IMPDH. The production of NADH was monitored spectrophotometrically at 340 nm (=6.22 mM^−1 cm^−1) using a Hitachi U-2000 spectrophotometer.
IC50 values were calculated for each inhibitor according to the following equation: υi=υo/(1+[I]/IC50), using the SigmaPlot program (SPSS, Inc.).
The CpIMPDH inhibitory activity of the compounds was assessed by monitoring the production of NADH by fluorescence (FIG. 55). Replacing the p-MeO of the parent compound C with Cl or Br increased potency by 10-fold (C10, aka 126) and 20-fold (C14, aka 130), respectively, as has been similarly observed with another inhibitor series. To fill the cavity observed in the crystal structure, the para-substituted aniline group was replaced with 3,4-dichloroaniline (C86) or 2-naphthylamine (C90); the addition of a second Cl improved potency by a factor of 2, while fusing an additional aromatic ring increased potency by a factor of 8. Similar trends were observed when the thiazole ring was attached at the 2-position (C61 aka 171, C64 aka 174, C84 and C90). […] The best CpIMPDH inhibitor, C90, has an IC50=7.4 nM with selectivity >10^3 for the parasite enzyme.
Evaluation of Cp-IMPDH inhibitory activity for the various prepared compounds was conducted utilizing an assay measuring the conversion of IMP to XMP by monitoring the production of NADH by fluorescence emission in the presence of varying inhibitor concentrations. […] On the contrary, ortho and meta substitutions were devoid of inhibition activity.

The chains behind the UniProt entries cited, without tags or fusion partners.
UniProt Q8T6T2, whole entry: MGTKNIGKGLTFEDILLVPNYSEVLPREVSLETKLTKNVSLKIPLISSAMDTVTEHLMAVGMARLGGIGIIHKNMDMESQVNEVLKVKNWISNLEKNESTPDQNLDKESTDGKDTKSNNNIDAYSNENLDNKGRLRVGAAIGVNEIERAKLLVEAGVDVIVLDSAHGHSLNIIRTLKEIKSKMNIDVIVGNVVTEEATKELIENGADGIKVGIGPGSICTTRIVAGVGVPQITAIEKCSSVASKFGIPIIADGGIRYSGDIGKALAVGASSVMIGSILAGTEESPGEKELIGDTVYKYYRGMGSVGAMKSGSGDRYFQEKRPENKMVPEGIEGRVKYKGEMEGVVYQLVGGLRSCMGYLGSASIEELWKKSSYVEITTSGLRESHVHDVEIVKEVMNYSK
UniProt P56088, whole entry: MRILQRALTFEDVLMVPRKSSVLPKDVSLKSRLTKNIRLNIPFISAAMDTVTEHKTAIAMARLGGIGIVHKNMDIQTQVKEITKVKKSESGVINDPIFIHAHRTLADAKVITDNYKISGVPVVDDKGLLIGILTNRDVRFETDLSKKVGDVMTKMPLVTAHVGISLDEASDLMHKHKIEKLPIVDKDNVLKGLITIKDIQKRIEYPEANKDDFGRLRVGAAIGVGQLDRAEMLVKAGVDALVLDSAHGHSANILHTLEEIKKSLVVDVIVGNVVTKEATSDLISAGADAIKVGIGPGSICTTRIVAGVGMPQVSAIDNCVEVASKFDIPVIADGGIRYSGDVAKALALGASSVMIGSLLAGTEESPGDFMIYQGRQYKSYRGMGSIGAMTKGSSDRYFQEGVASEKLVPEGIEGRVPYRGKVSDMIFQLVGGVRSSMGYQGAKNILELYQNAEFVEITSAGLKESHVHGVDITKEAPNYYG
UniProt P0C0H6, whole entry: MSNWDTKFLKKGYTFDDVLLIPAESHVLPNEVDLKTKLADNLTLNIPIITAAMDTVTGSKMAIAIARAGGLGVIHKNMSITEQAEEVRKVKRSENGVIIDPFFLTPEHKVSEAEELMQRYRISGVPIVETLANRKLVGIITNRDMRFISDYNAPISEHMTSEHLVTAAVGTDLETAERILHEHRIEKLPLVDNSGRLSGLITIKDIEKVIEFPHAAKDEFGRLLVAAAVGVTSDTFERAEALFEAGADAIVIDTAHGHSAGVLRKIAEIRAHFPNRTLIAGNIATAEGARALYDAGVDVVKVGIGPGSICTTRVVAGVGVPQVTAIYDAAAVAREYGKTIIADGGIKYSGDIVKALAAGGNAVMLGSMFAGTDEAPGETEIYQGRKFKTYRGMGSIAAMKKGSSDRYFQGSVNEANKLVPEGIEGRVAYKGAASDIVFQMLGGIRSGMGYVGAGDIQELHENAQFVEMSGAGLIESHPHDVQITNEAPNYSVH

Another assay concerns the target HpIMPDH (Helicobacter pylori, UniProt P56088). In words: H. pylori IMPDH inhibition. The class given is biochemical. The settings on record: read-out: IC50 HpIMPDH.
The target in assay [2] is T1, recombinant C. parvum IMPDH. The settings on record: read-out: IC50 CpIMPDH (reference [13]); cited from earlier work.
A further assay relates to H. pylori strain G27. In words: H. pylori growth assay (colony forming units). The format is cell-based, Helicobacter pylori.
For the next assay, the target named is SpIMPDH (Streptococcus pyogenes, UniProt P0C0H6). The assay can be described thus: S. pyogenes IMPDH inhibition. The class given is biochemical.
The test system of assay [3] is CpIMPDH, HpIMPDH, BbIMPDH and S250A/L444Y. In words: intrinsic IC50 (adjusted for competition with the mobile flap). The settings on record: read-out: intrinsic IC50, range over CpIMPDH, HpIMPDH, BbIMPDH and S250A/L444Y.

Like-named read-outs stand apart in the source and are kept apart here.

Turning to `O=C(Cn1c(-c2cscn2)nc2ccccc21)Nc1ccc2ccccc2c1`, in assay [1], the “CpIMPDH inhibition, result in words” value is on record as “most potent inhibitors”; the selectivity for the parasite enzyme (CpIMPDH) over human IMPDH2 was more than 1000; the IC50 was 7 nM. Also, in assay [1] (para-substituted aniline replaced with 3,4-dichloroaniline or 2-naphthylamine), the “improvement of CpIMPDH potency by a factor, relative to para-substituted aniline analog” value came to 8.
On to `O=C(Cn1c(-c2ccccn2)nc2ccccc21)Nc1ccc2ccccc2c1`, for which the values for the IC50 (on HpIMPDH; in assay [2]; in assay [1]) were 25 nM, 8 nM and 2 nM, respectively. For the same compound, in the assay with H. pylori strain G27 (culture exiting stationary phase), the “concentration sufficient to block proliferation of H. pylori” value is 20 µM. The “concentration sufficient to block growth of H. pylori” value in the assay on H. pylori strain G27 (exponentially growing cells) was determined as 60 µM.
For `O=C(Cn1c(-c2cccs2)nc2ccccc21)Nc1ccc(Cl)cc1`, in assay [1], the “drop in CpIMPDH IC50 compared to C61” value is given as “about 10 nM” and the IC50 was found to be 20 nM.
For `Nc1ccc(C(=O)OCc2nc3cc4ccccc4cc3[nH]2)cc1`, the “IC50 SpIMPDH” value at SpIMPDH is listed as “submicromolar inhibitors”.
With `COc1ccc(NC(=O)Cn2c(-c3cscn3)nc3ccccc32)cc1`, in assay [3], the IC50 lay within 180 to 360 nM.
Regarding `Nc1ccc(C(=O)OCCCc2nc3cc4ccccc4cc3[nH]2)cc1`, the “IC50 SpIMPDH” value against SpIMPDH was “submicromolar inhibitors”.

Source of the values: patent US10125116B2, “Compounds and methods for treating mammalian gastrointestinal microbial infections” (Brandeis University, priority 2009, dated 2018).
